Values from PubChem BioAssay AID1259414 (Drosophila RNAi Screening Center, 2018).
The screen tested about 24,000 reagents; this is a random part of those that have a named target and a result. In the full data, about 1,210 (5%) got an active call. 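Inactive calls also include excluded dsRNAs with several or no targets, genes unexpressed in JW18, and well A1, regardless of score.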 A plus sign joins genes that one reagent is predicted to hit. Reagent sequences are not shown.

Aim: 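Host factors increasing or decreasing Wolbachia levels in cultured fly cells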 (primary screen)
System: Drosophila JW18 cells infected with Wolbachia
Reagents: long dsRNA against Drosophila genes, 0.25 µg dsRNA per well of a 384-well plate
Timing: 5 days
Challenge: cells persistently infected with Wolbachia before knock-down; no added drug
Read-out: 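Imaged fluorescence in situ signal for Wolbachia 23S rRNA per DAPI-counted host cell, given as a robust z-score within each plate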
Scale: Wolbachia per cell robust z: higher = more Wolbachia per host cell than the plate typical
Hit rule: 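Active if absolute robust z reaches 1.5 in two or more of three replicates, leaving out multi- or no-target dsRNAs, genes unexpressed in JW18 and A1 wells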

For FucTC [DRSC20966] the deposit lists Wolbachia per cell robust z, rep 1 = 0.0488; Wolbachia per cell robust z, rep 2 = -0.407; Wolbachia per cell robust z, rep 3 = -0.112; inactive. Against FucTC [DRSC29686] the deposit lists Wolbachia per cell robust z, rep 1 = -5.97; Wolbachia per cell robust z, rep 2 = 0.411; Wolbachia per cell robust z, rep 3 = 0.35; inactive. Knock-down of Cyp6a8 [DRSC07384] resulted in: Wolbachia per cell robust z, rep 1 = -0.0348; Wolbachia per cell robust z, rep 2 = 0.647; Wolbachia per cell robust z, rep 3 = -0.686; inactive. Silencing of CG17019 [DRSC06642] came out at: Wolbachia per cell robust z, rep 1 = -3.97; Wolbachia per cell robust z, rep 2 = 0.447; Wolbachia per cell robust z, rep 3 = 0.605; inactive. With knock-down of spz6 [DRSC04533], the screen gave Wolbachia per cell robust z, rep 1 = 0.596; Wolbachia per cell robust z, rep 2 = -1.88; Wolbachia per cell robust z, rep 3 = -0.8; inactive. Against asRNA:CR43478 + CG14662 [DRSC12248] the deposit lists Wolbachia per cell robust z, rep 1 = 0.987; Wolbachia per cell robust z, rep 2 = -2.09; Wolbachia per cell robust z, rep 3 = 0.668; inactive.

Sce [DRSC23442] scored Wolbachia per cell robust z, rep 1 = 0.788; Wolbachia per cell robust z, rep 2 = 4.02; Wolbachia per cell robust z, rep 3 = -0.212; inactive. PCB [DRSC05939] scored Wolbachia per cell robust z, rep 1 = 0.304; Wolbachia per cell robust z, rep 2 = -0.0668; Wolbachia per cell robust z, rep 3 = 1.14; inactive. For RpL23 [DRSC04648], the values are Wolbachia per cell robust z, rep 1 = 1.64; Wolbachia per cell robust z, rep 2 = 0.554; Wolbachia per cell robust z, rep 3 = 1.18; inactive. Against snky [DRSC09838] the deposit lists Wolbachia per cell robust z, rep 1 = -2.25; Wolbachia per cell robust z, rep 2 = -1.86; Wolbachia per cell robust z, rep 3 = 1.25; inactive. Pp1-87B [DRSC16794] scored Wolbachia per cell robust z, rep 1 = 4.79; Wolbachia per cell robust z, rep 2 = 3.81; Wolbachia per cell robust z, rep 3 = 5.8; active. For Pp1-87B [DRSC23299], the values are Wolbachia per cell robust z, rep 1 = -2.69; Wolbachia per cell robust z, rep 2 = -1.43; Wolbachia per cell robust z, rep 3 = 0.437; inactive.

After knock-down of Pp1-87B [DRSC27290], the record shows Wolbachia per cell robust z, rep 1 = -1.56; Wolbachia per cell robust z, rep 2 = -1.18; Wolbachia per cell robust z, rep 3 = -1.5; inactive. Silencing of Cad96Ca [DRSC14220] came out at: Wolbachia per cell robust z, rep 1 = 0.692; Wolbachia per cell robust z, rep 2 = -2.03; Wolbachia per cell robust z, rep 3 = -0.212; inactive. Depletion of Cad96Ca [DRSC16693] gave: Wolbachia per cell robust z, rep 1 = 0.918; Wolbachia per cell robust z, rep 2 = 0.218; Wolbachia per cell robust z, rep 3 = -0.198; inactive. For Polr2E [DRSC06100], the values are Wolbachia per cell robust z, rep 1 = 0.277; Wolbachia per cell robust z, rep 2 = 1.04; Wolbachia per cell robust z, rep 3 = 1; inactive. Against Rpt4R [DRSC10791], the values are Wolbachia per cell robust z, rep 1 = -0.242; Wolbachia per cell robust z, rep 2 = -0.74; Wolbachia per cell robust z, rep 3 = -0.67; inactive. For Rpt4R [DRSC25928] the deposit lists Wolbachia per cell robust z, rep 1 = 0.707; Wolbachia per cell robust z, rep 2 = -0.31; Wolbachia per cell robust z, rep 3 = 1; inactive.

With knock-down of CG8939 [DRSC20127], the record shows Wolbachia per cell robust z, rep 1 = 0.515; Wolbachia per cell robust z, rep 2 = 0.886; Wolbachia per cell robust z, rep 3 = -0.375; inactive. Crg-1 [DRSC22882] gave Wolbachia per cell robust z, rep 1 = 0.458; Wolbachia per cell robust z, rep 2 = -0.208; Wolbachia per cell robust z, rep 3 = 0.275; inactive. Crg-1 [DRSC29136] scored Wolbachia per cell robust z, rep 1 = -1.51; Wolbachia per cell robust z, rep 2 = 0.223; Wolbachia per cell robust z, rep 3 = -0.514; inactive. With knock-down of wun2 [DRSC07566], the screen gave Wolbachia per cell robust z, rep 1 = 0.88; Wolbachia per cell robust z, rep 2 = 0.0676; Wolbachia per cell robust z, rep 3 = 1.02; inactive. With knock-down of pall [DRSC10364] the results were Wolbachia per cell robust z, rep 1 = -7.87; Wolbachia per cell robust z, rep 2 = 0.0779; Wolbachia per cell robust z, rep 3 = -0.335; inactive. pgc [DRSC04099] gave Wolbachia per cell robust z, rep 1 = -2.01; Wolbachia per cell robust z, rep 2 = -2.09; Wolbachia per cell robust z, rep 3 = -4.25; inactive.

Sorted by “Wolbachia per cell robust z, rep 1” (lowest first): some entries from above
Crg-1 [DRSC29136] — Wolbachia per cell robust z, rep 1 = -1.51; Wolbachia per cell robust z, rep 2 = 0.223; Wolbachia per cell robust z, rep 3 = -0.514; Call = inactive
Crg-1 [DRSC22882] — Wolbachia per cell robust z, rep 1 = 0.458; Wolbachia per cell robust z, rep 2 = -0.208; Wolbachia per cell robust z, rep 3 = 0.275; Call = inactive
CG8939 [DRSC20127] — Wolbachia per cell robust z, rep 1 = 0.515; Wolbachia per cell robust z, rep 2 = 0.886; Wolbachia per cell robust z, rep 3 = -0.375; Call = inactive
